Data from US11268099.
Construct, isoform or probe ends are uncertain for at least one entry.

System: 2G12 (anti-HIV-1 gp120 carbohydrate-binding monoclonal antibody)
Assay: competition with a labelled probe
Conditions: all T in random region are EdU click-glycosylated with Man9 (3 sites); binding competed by 200 nM gp120 JR-FL; purified recombinant protein; protein details: Polymun Scientific; label: 5'-32P; single-stranded DNA

Sequence: CGGGTACGGGAGACCCACGGTGCAACCTACGGATAAAGCACACAGGAGACGACAAG [Clone 1 glycoDNA]
- binding result: binds
